Measured values from several laboratories, pooled; numbers as filed in NIAID ChemDB.

Shared fields: target-level tests; organism: HIV-1; target: Protease

Lines come from different laboratories, so protocols vary. An empty or dashed field is not shown. ICn is the concentration giving n% inhibition.

compound	strain	measure	read by	value
O=C1N(Cc2cccc(-c3cnc[nH]3)c2)[C@H](Cc2ccccc2)[C@H](O)[C@@H](O)[C@@H](Cc2ccccc2)N1Cc1cccc(-c2cnc[nH]2)c1	RF	Ki	-	0.00019 µM
CC(C)[C@H](NC(=O)OCc1ccccc1)C(=O)N[C@@H](Cc1ccccc1)C(O)[C@H](Cc1ccccc1)NC(=O)[C@@H](NC(=O)OC(C)(C)C)C(C)C	-	IC50	fluorescence	<0.1 µM
CC(C)[C@H](NC(=O)[C@H](C)NC(=O)OCc1ccccc1)C(=O)N[C@@H](Cc1ccccc1)[C@H](O)CN1C[C@H]2CCCC[C@H]2C[C@H]1C(=O)NC(C)(C)C	-	Ki	fluorescence	0.0015 µM
Nc1cccc(CN2C(=O)N(Cc3cccc(-c4ccn[nH]4)c3)[C@H](Cc3ccccc3)[C@H](O)[C@@H](O)[C@H]2Cc2ccccc2)c1	RF	Ki	-	0.000035 µM
CC1(C)CC[C@]2(C(=O)O)CC[C@]3(C)C(=CC[C@@H]4[C@@]5(C)CC[C@H](OC(=O)CCCCC(=O)O)C(C)(C)[C@@H]5CC[C@]43C)[C@@H]2C1	-	IC50	HPLC	3 µM
CNC(=O)[C@H](Cc1ccccc1)[C@H](O)CN1C[C@H]2CCCC[C@H]2C[C@H]1C(=O)NC(C)(C)C	-	IC50	-	1.2 µM
CC(C)C[C@H](NC(=O)OCc1ccccc1)C(=O)N[C@H](C(=O)N[C@@H](CC(C)C)[C@@H](O)[C@H](O)[C@H](CC(C)C)NC(=O)[C@@H](NC(=O)[C@H](CC(C)C)NC(=O)OCc1ccccc1)C(C)C)C(C)C	-	Ki	fluorescence	0.00087 µM
CC(C)[C@H](NC(=O)N(C)C)C(=O)N[C@@H](Cc1ccccc1)C[C@H](O)[C@H](Cc1ccccc1)NC(=O)OCc1cncs1	-	IC50	fluorescence	~0.0005 µM
CCC(c1cccc(NS(=O)(=O)c2ccc(C#N)cn2)c1)c1c(O)c2c(oc1=O)CCCC2	-	Ki	substrate cleavage	0.000065 µM
CC(C)[C@H](NC(=O)OCc1ccccc1)C(=O)N[C@@H](Cc1ccccc1)[C@H](O)[C@@H](C(=O)O)[C@H](Cc1ccccc1)NC(=O)OC(C)(C)C	-	Ki	-	0.028 µM
Cc1cn([C@H]2C[C@H](N=[N+]=[N-])[C@@H](COC(=O)CCCCC(=O)N[C@@H]3CC[C@]4(C)[C@H]5CC=C6[C@@H]7CC(C)(C)CC[C@]7(C(=O)O)CC[C@@]6(C)[C@]5(C)CC[C@H]4C3(C)C)O2)c(=O)[nH]c1=O	-	IC50	HPLC	1.9 µM
CC(C)(C)CNC(=O)[C@H](Cc1ccccc1)[C@H](O)CN1C[C@H]2CCCC[C@H]2C[C@H]1C(=O)NC(C)(C)C	-	IC50	-	0.02 µM
COC(=O)[C@]12CCC(C)(C)CC1C1=CCC3[C@@]4(C)CC[C@H](NC(=O)CCCCC(=O)O)C(C)(C)C4CC[C@@]3(C)[C@]1(C)CC2	-	IC50	HPLC	3 µM
O=C1N(Cc2cccc(-c3ccn[nH]3)c2)[C@H](Cc2ccccc2)[C@H](O)[C@@H](O)[C@@H](Cc2ccccc2)N1Cc1cccc(-c2ccn[nH]2)c1	RF	Ki	fluorescence	0.000027 µM
CC(C)[C@H](NC(=O)c1ccccn1)C(=O)N[C@@H](Cc1ccccc1)[C@H](O)[C@H](O)[C@H](Cc1ccccc1)NC(=O)[C@@H](NC(=O)c1ccccn1)C(C)C	-	Ki	substrate cleavage	0.0048 µM
CC(C)[C@H](NC(=O)OCc1ccccc1)C(=O)N[C@@H](Cc1ccccc1)[C@H](O)[C@@H](O)[C@H](Cc1ccccc1)NC(=O)[C@@H](NC(=O)OCc1ccccc1)C(C)C	-	IC50	fluorescence	<0.001 µM
CC(C)[C@H](NC(=O)[C@H](C)NC(=O)OCc1ccccc1)C(=O)N[C@@H](Cc1ccccc1)C[C@H](O)[C@H](Cc1ccccc1)NC(=O)OCc1cncs1	-	IC50	fluorescence	0.005 µM
O=C(CCc1ccccc1)C(F)Cc1ccccc1	-	IC50	fluorescence	<270 µM
CCC(C1=C(O)C2CCCC2OC1=O)c1ccccc1	-	Ki	substrate cleavage	>2 µM
CCC(=O)c1cccc(CN2C(=O)N(Cc3cccc(C(=O)CC)c3)[C@H](Cc3ccccc3)[C@H](O)[C@@H](O)[C@H]2Cc2ccccc2)c1	RF	Ki	fluorescence	0.00021 µM
COC(=O)[C@]12CCC(C)(C)C[C@H]1C1=CC[C@@H]3[C@@]4(C)CC[C@H](NC(=O)CCCCC(=O)Oc5c(OC)ccc6c5[C@@]57CCC(C)[C@@H](C6)C5=C(OC)C(OC(C)=O)C(OC(C)=O)C7)C(C)(C)[C@@H]4CC[C@@]3(C)[C@]1(C)CC2	-	IC50	HPLC	>100 µM
CC(C)[C@H](NC(=O)OCc1ccccc1)C(=O)N[C@@H](Cc1ccccc1)[C@@H](O)[C@H](CO)[C@H](Cc1ccccc1)NC(=O)[C@H](CC(N)=O)NC(=O)OCc1ccccc1	-	Ki	-	0.0011 µM
CCC(c1cccc(NS(=O)(=O)c2ccc(C#N)cn2)c1)c1c(O)c2c(oc1=O)CCCCCCCC2	-	Ki	substrate cleavage	0.00025 µM
CC(C)[C@H](NC(=O)[C@@H](NC(=O)OCc1ccccc1)[C@@H](C)O)C(=O)N[C@@H](Cc1ccccc1)[C@@H](O)[C@H](O)[C@H](Cc1ccccc1)NC(=O)[C@@H](NC(=O)[C@@H](NC(=O)OCc1ccccc1)[C@@H](C)O)C(C)C	-	Ki	fluorescence	0.0077 µM
CC(C)[C@H](NC(=O)OCc1ccccc1)C(=O)N[C@@H](Cc1ccccc1)[C@H](O)[C@H](Cc1ccccc1)NC(=O)[C@@H](NC(=O)OCc1ccncc1)C(C)C	-	IC50	fluorescence	~0.005 µM
CC(C)[C@H](NC(=O)[C@H](CO)NC(=O)OCc1ccccc1)C(=O)N[C@@H](Cc1ccccc1)[C@@H](O)[C@H](O)[C@H](Cc1ccccc1)NC(=O)[C@@H](NC(=O)[C@H](CO)NC(=O)OCc1ccccc1)C(C)C	-	Ki	fluorescence	0.00058 µM
CC(C)[C@H](NC(=O)Cc1cccnc1)C(=O)N[C@@H](Cc1ccccc1)[C@@H](O)[C@H](O)[C@H](Cc1ccccc1)NC(=O)[C@@H](NC(=O)Cc1cccnc1)C(C)C	-	IC50	fluorescence	<0.01 µM
Cc1cc(SC2=C(O)C[C@@](CCc3ccc(N)cc3)(C(C)C)OC2=O)c(C(C)(C)C)cc1CO	-	Ki	-	0.0001 µM
O=C1N(Cc2cccnc2)[C@H](Cc2ccccc2)[C@H](O)[C@@H](O)[C@@H](Cc2ccccc2)N1Cc1cccc(-c2ccn[nH]2)c1	RF	Ki	fluorescence	0.00017 µM
CC(C)(C)NC(=O)[C@@H]1C[C@@H]2CCCC[C@@H]2CN1C[C@@H](O)[C@@H](Cc1ccccc1)C(=O)NCc1ccccc1	-	IC50	-	0.087 µM
COC(=O)[C@]12CCC(C)(C)CC1C1=CCC3[C@@]4(C)CC[C@@H](N)C(C)(C)C4CC[C@@]3(C)[C@]1(C)CC2	-	IC50	HPLC	>20 µM
CCC(c1ccccc1)c1c(O)c2c(oc1=O)CCCCCCCC2	-	Ki	substrate cleavage	>2 µM
O=Cc1cccc(CN2C(=O)N(Cc3cccc(C=O)c3)[C@H](Cc3ccccc3)[C@H](O)[C@@H](O)[C@H]2Cc2ccccc2)c1	RF	Ki	-	0.00044 µM
COC(=O)[C@]12CCC(C)(C)C[C@H]1C1=CC[C@@H]3[C@@]4(C)CC[C@H](NC(=O)CCCCC(=O)OC[C@H]5O[C@@H](n6cc(C)c(=O)[nH]c6=O)C[C@@H]5N=[N+]=[N-])C(C)(C)[C@@H]4CC[C@@]3(C)[C@]1(C)CC2	-	IC50	HPLC	20 µM
CCC(C1=C(O)C2CCCCCCC2OC1=O)c1cccc(NS(=O)(=O)c2ccc(C#N)cn2)c1	-	Ki	substrate cleavage	0.00008 µM
O=C1N(Cc2cccc(-c3ncn[nH]3)c2)[C@H](Cc2ccccc2)[C@H](O)[C@@H](O)[C@@H](Cc2ccccc2)N1Cc1cccc(-c2ncn[nH]2)c1	RF	Ki	fluorescence	0.000052 µM

The last 5 rows once more:

compound | strain | measure | read by | value
CCC(c1ccccc1)c1c(O)c2c(oc1=O)CCCCCCCC2 | - | Ki | substrate cleavage | >2 µM
O=Cc1cccc(CN2C(=O)N(Cc3cccc(C=O)c3)[C@H](Cc3ccccc3)[C@H](O)[C@@H](O)[C@H]2Cc2ccccc2)c1 | RF | Ki | - | 0.00044 µM
COC(=O)[C@]12CCC(C)(C)C[C@H]1C1=CC[C@@H]3[C@@]4(C)CC[C@H](NC(=O)CCCCC(=O)OC[C@H]5O[C@@H](n6cc(C)c(=O)[nH]c6=O)C[C@@H]5N=[N+]=[N-])C(C)(C)[C@@H]4CC[C@@]3(C)[C@]1(C)CC2 | - | IC50 | HPLC | 20 µM
CCC(C1=C(O)C2CCCCCCC2OC1=O)c1cccc(NS(=O)(=O)c2ccc(C#N)cn2)c1 | - | Ki | substrate cleavage | 0.00008 µM
O=C1N(Cc2cccc(-c3ncn[nH]3)c2)[C@H](Cc2ccccc2)[C@H](O)[C@@H](O)[C@@H](Cc2ccccc2)N1Cc1cccc(-c2ncn[nH]2)c1 | RF | Ki | fluorescence | 0.000052 µM